What is called CC50 is the concentration giving 50% cytotoxicity. The IC50 is the concentration that inhibits the measured activity by half.

Where two headings read alike, the source gives them in different places.

We go through eleven molecules from US20240083885A1, “COMPOSITIONS AND METHODS FOR INHIBITING M PRO PROTEASE ACTIVITY AND FOR PREVENTING AND TREATING SARS-COV-2 INFECTION” (priority 2020, published 2024).

One data set concerns Vero E6 cells. Put plainly: Cytotoxicity in Vero E6 cells (neutral red uptake).
Another data set deals with SARS-CoV-2 M^pro (Severe acute respiratory syndrome coronavirus 2 (2019-nCoV) (SARS-CoV-2), UniProt P0DTD1). The experiment in a line: FRET-based enzymatic assay against SARS-CoV-2 M^pro. Format: biochemical. As to conditions: for IC50: read-out: IC50 against SARS-CoV-2 M^pro, FRET-based enzymatic assay; for enzymatic inhibition of SARS-CoV-2 M^pro (in words): compared to ML188 (1) or compound 13.

Where [1] appears, read: read-out: CC50 in Vero E6 cells, Vero E6 cells.

In the case of `CC(C)(C)CC(C)(C)NC(=O)C(c1cccnc1)N(C(=O)c1ccco1)c1ccc(-c2ccccc2)cc1` (stereo not shown), in the data set with Vero E6 cells (setting [1]), the CC50 is over 100 µM. Also, the IC50 at SARS-CoV-2 M^pro is under 5 µM.
As to `CC(C)(C)NC(=O)C(c1cncnc1)N(C(=O)c1ccco1)c1ccc(C(C)(C)C)cc1` (stereo not shown), the IC50 on SARS-CoV-2 M^pro was over 20 µM.
For `CC(C)(C)c1ccc(N(C(=O)c2ccco2)C(C(=O)NC2CCCCC2)c2cccnc2)cc1` (stereo not shown), in the data set with Vero E6 cells, the “cellular cytotoxicity in Vero E6 cells (in words)” value (“cellular cytotoxicity” below) is on record as “moderate to high cellular cytotoxicity”. In addition, on SARS-CoV-2 M^pro, the “enzymatic inhibition of SARS-CoV-2 M^pro (in words)” value (shortened to “enzymatic inhibition”) is given as “improved enzymatic inhibition” and the IC50 was under 5 µM.
On to `O=C(NC1CCCC1)C(c1cccnc1)N(C(=O)c1ccco1)c1ccc(-c2ccccc2)cc1` (stereo not shown), for which the 50% cytotoxic concentration (CC50) in the data set with Vero E6 cells (setting [1]) is over 100 µM. The IC50 at SARS-CoV-2 M^pro is under 5 µM.
Regarding `CC(C)(C)c1ccc(N(C(=O)c2ccco2)C(C(=O)NC2CC2)c2cccnc2)cc1` (stereo not shown) [Jun8-58-2], the “cellular cytotoxicity” value with Vero E6 cells is given as “moderate to high cellular cytotoxicity”. Also, on SARS-CoV-2 M^pro, the “enzymatic inhibition” value is on record as “improved enzymatic inhibition” and the IC50 is under 5 µM.
For `C[C@H](NC(=O)C(c1cccnc1)N(C(=O)c1ccco1)c1ccc(C2CCCCC2)cc1)c1ccccc1` (stereo partly shown) [Jun8-66-1], the “cellular cytotoxicity” value with Vero E6 cells is reported as “moderate to high cellular cytotoxicity”. Moreover, the IC50 on SARS-CoV-2 M^pro was under 3 µM.
`C[C@H](NC(=O)C(c1cccnc1)N(C(=O)c1ccco1)c1ccc([Si](C)(C)C)cc1)c1ccccc1` (stereo partly shown) [Jun8-75-2]: the “cellular cytotoxicity” value in the data set with Vero E6 cells was “moderate to high cellular cytotoxicity”. Besides, on SARS-CoV-2 M^pro (compared to compound 13), the “fold increase in M^pro inhibition” value was 2.9 fold. Also, on SARS-CoV-2 M^pro, the IC50 was under 3 µM.
The molecule `CC(C)(C)c1ccc(N(C(=O)c2ccco2)C(C(=O)NC2CCCC2)c2cccnc2)cc1` (stereo not shown) [Jun8-88-2] came in with a CC50 in the data set with Vero E6 cells of over 100 µM. For the same molecule, on SARS-CoV-2 M^pro, the “enzymatic inhibition” value was “improved enzymatic inhibition” and the IC50 is under 5 µM.
For the molecule `C[C@H](NC(=O)C(c1cccnc1)N(C(=O)c1ccco1)c1ccc(-c2ccco2)cc1)c1ccccc1` (stereo partly shown) [Jun8-91-5], in the data set on Vero E6 cells, the “cellular cytotoxicity” value is “moderate to high cellular cytotoxicity”. Further, the IC50 at SARS-CoV-2 M^pro was under 3 µM.
In the same order, the values of `O=C(NC1CCCCC1)C(c1cccnc1)N(C(=O)c1ccco1)c1ccc(-c2ccccc2)cc1` (stereo not shown) [Jun9-3-3] are “moderate to high cellular cytotoxicity” and under 5 µM.
Regarding `C[C@H](NC(=O)C(c1cccnc1)N(C(=O)c1ccco1)c1ccc(-c2ccccn2)cc1)c1ccccc1` (stereo partly shown) [Jun9-6-4], the CC50 with Vero E6 cells is over 100 µM. Moreover, the 50% inhibitory concentration (IC50) on SARS-CoV-2 M^pro was under 3 µM.
